According to patent publication US10207993B2 (priority 2014, dated 2019):

Test system: H37Rv
Experiment: Inhibition of Mycobacterium colony growth in THP1 macrophages (CFU counts)
Assay type: cell-based, M. tuberculosis
Details: PMA-differentiated THP-1, MOI 10, CFU at 90 hr

| SMILES | H37Rv % Inhibition at 500 nM |
| --- | --- |
| O=C(OC1CCN(Cc2ccccc2)C1)C(O)(c1ccccc1)c1ccccc1 (centres unmarked) | 46% |
| CC(C)NC(=O)N1CCCC(OC(=O)C(O)(c2ccccc2)c2ccccc2)C1 (centres unmarked) | 51% |
| CS(=O)(=O)N1CCCC(OC(=O)C(O)(c2ccccc2)c2ccccc2)C1 (centres unmarked) | 55% |
| O=C(OC1CCN(Cc2ccccc2)CC1)C(O)(c1ccccc1)c1ccccc1 | 46% |
| O=C(O[C@@H]1CCCN(Cc2ccccc2)C1)C(O)(c1ccccc1)c1ccccc1 | 79% |
